Source: PubChem BioAssay AID504761 (Drosophila RNAi Screening Center, 2011)
The deposit covers about 22,000 reagents; below is an unselected part of those that have a named target and a result. Over the whole deposit, 116 (0.52%) got an active call. 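Calls depend on retest data that are not deposited; infection was ranked per plate without normalising between plates; the unit of the infection score is not given.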 Raw values vary from plate to plate and are shown uncorrected. Further read-outs or replicates are left out here. Not stated in the record: the amount of reagent, the time to read-out.

- Test: 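Insect host genes that dengue virus relies on to spread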 (primary screen)
- Cell system: D.Mel-2 cells from Drosophila
- Knock-down reagent: long dsRNA against Drosophila genes
- Conditions: infection with dengue virus type 2; dose and infection time not stated
- Detection: 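Cells stained for dengue envelope protein and imaged; percent of infected cells per well on duplicate plates, ranked by infection, with stained nuclei counted for cell number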
- Direction: infection score: higher = more virus-infected cells; cell count: higher = more cells in the well
- Call rule: 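Very low infection ranking in both replicate wells (chance probability at most 0.065), then a retest showing infection dropped 1.5-fold or more at p below 0.05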
- Meaning of the calls: active = confirmed: knock-down lowers infection; inactive = not picked or not confirmed

The opening 2 entries, to show the layout:
Pino (Pinocchio) [DRSC00038] | infection score, replicate 1 = 13.3; cell count, replicate 1 = 5822; outcome = inactive
Pino (Pinocchio) [DRSC00662] | infection score, replicate 1 = 4.52; cell count, replicate 1 = 6170; outcome = inactive

The list itself, from the start:
Pino (Pinocchio) [DRSC00038] | infection score, replicate 1 = 13.3; cell count, replicate 1 = 5822; outcome = inactive
Pino (Pinocchio) [DRSC00662] | infection score, replicate 1 = 4.52; cell count, replicate 1 = 6170; outcome = inactive
Sdc (Syndecan) [DRSC04654] | infection score, replicate 1 = 1.7; cell count, replicate 1 = 6517; outcome = inactive
Sdc (Syndecan) [DRSC25762] | infection score, replicate 1 = 1.49; cell count, replicate 1 = 6124; outcome = inactive
Gal (beta galactosidase) [DRSC03134] | infection score, replicate 1 = 9.98; cell count, replicate 1 = 5709; outcome = inactive
Gal (beta galactosidase) [DRSC24562] | infection score, replicate 1 = 0.34; cell count, replicate 1 = 6536; outcome = inactive
Gpo1 (Glycerophosphate oxidase 1) [DRSC07128] | infection score, replicate 1 = 11.7; cell count, replicate 1 = 6207; outcome = inactive
BBS9 (Bardet-Biedl syndrome 9) [DRSC04257] | infection score, replicate 1 = 13.8; cell count, replicate 1 = 6191; outcome = inactive
BBS9 (Bardet-Biedl syndrome 9) [DRSC27789] | infection score, replicate 1 = 9.42; cell count, replicate 1 = 6867; outcome = inactive
nAChRalpha4 (nicotinic Acetylcholine Receptor alpha4) [DRSC11925] | infection score, replicate 1 = 2.4; cell count, replicate 1 = 6037; outcome = inactive
nAChRalpha4 (nicotinic Acetylcholine Receptor alpha4) [DRSC26817] | infection score, replicate 1 = 2.03; cell count, replicate 1 = 6941; outcome = inactive
Gr64c (Gustatory receptor 64c) [DRSC08445] | infection score, replicate 1 = 2.98; cell count, replicate 1 = 6608; outcome = inactive
Gr64c (Gustatory receptor 64c) [DRSC27568] | infection score, replicate 1 = 31.2; cell count, replicate 1 = 5867; outcome = inactive
qtc (quick-to-court) [DRSC02364] | infection score, replicate 1 = 16.3; cell count, replicate 1 = 5083; outcome = inactive
qtc (quick-to-court) [DRSC02365] | infection score, replicate 1 = 2.1; cell count, replicate 1 = 5991; outcome = inactive
qtc (quick-to-court) [DRSC27377] | infection score, replicate 1 = 38.9; cell count, replicate 1 = 3106; outcome = inactive
